This test addresses T1, HIV-1 gp41 fusion peptide N36 (HIV-1, N-terminal acetyl (Ac-), C-terminal amide (-NH2)).
T1 construct: Synthetic peptide, HPLC purified; In the six-helix bundle (6HB) three N36 helices form the trimeric coiled-coil core; also called NHR peptide N36; gp41 N-terminal heptad repeat peptide N36
The test can be described thus: native PAGE mobility shift, equimolar peptides in PBS at 37 C.

B1: HIV-1 gp41 fusion peptide C34 (peptide)
peptide: not shown
modifications: N-terminal acetyl (Ac-), C-terminal amide (-NH2)
notes: Synthetic peptide, HPLC purified; In the six-helix bundle (6HB) three C34 helices surround the N36 trimeric core; also called CHR peptide C34
Take B1: the binding result was “binds”.

These data come from patent publication US20140296141A1 (NEW YORK UNIVERSITY, published 2014).
